Reference: patent publication US20250382354A1

Key:
Assay in all cases: cell-based or functional assay
[1] = target: C-terminally truncated SARS-CoV-2 S protein, Omicron BA.2.75 (SARS-CoV-2 Omicron BA.2.75)
[2] = target: C-terminally truncated SARS-CoV-2 S protein, Omicron BA.1 (SARS-CoV-2 Omicron BA.1)
[3] = target: C-terminally truncated SARS-CoV-2 S protein, Alpha (SARS-CoV-2 Alpha)
[4] = target: C-terminally truncated SARS-CoV-2 S protein, Omicron BA.2 (SARS-CoV-2 Omicron BA.2)
[5] = target: C-terminally truncated SARS-CoV-2 S protein, Gamma (SARS-CoV-2 Gamma)
[6] = target: C-terminally truncated SARS-CoV-2 S protein, Omicron BA.2.75.2 (SARS-CoV-2 Omicron BA.2.75.2)
[7] = target: C-terminally truncated SARS-CoV-2 S protein, Delta (SARS-CoV-2 Delta)
[8] = target: C-terminally truncated SARS-CoV-2 S protein, Beta (SARS-CoV-2 Beta)

Substance	Omicron BA.2.75 Pseudovirus IC50 [1] [µg/mL]	Omicron BA.1 Pseudovirus IC50 [2] [µg/mL]	Alpha Pseudovirus IC50 [3] [µg/mL]	Omicron BA.2 Pseudovirus IC50 [4] [µg/mL]	Gamma Pseudovirus IC50 [5] [µg/mL]	Omicron BA.2.75.2 Pseudovirus IC50 [6] [µg/mL]	Delta Pseudovirus IC50 [7] [µg/mL]	Beta Pseudovirus IC50 [8] [µg/mL]
CV3-25 (antibody)	1.68	1.33	0.468	0.806	0.147	2.47	0.497	0.364
S2P6 (antibody)	69	29.4	–	49.3	0.471	59.9	–	–
